According to paper doi:10.1101/2020.02.18.954925v1 (biorxiv, 2020):

Test system: Nc1ncnc2c1ncn2[C@@H]1O[C@H](COP(=O)(O)OP(=O)(O)OP(=O)(O)O)[C@@H](O)[C@H]1O
Assay: purified protein
Settings: pH 7.5; 25.0 °C

Lpg2603 10-C (Legionella pneumophila subsp. pneumophila str. Philadelphia 1)
Km: 18.09 µM
